Several values for one entry are separate records, joined by “and”; a condition that tells them apart may be missing. Identical values can stand only once.
Assays:
[1] = DIOLL probe fluorescence-based liposome quantification
Procedure: A POPC solution of known concentration (100 μg.ml^−1) was used as standard. Increasing volumes of the standard solution were diluted with buffer in a 96 well plate (Nunc). The final volume per well was 200 μl and lipid concentrations between 0 and 80 μg.ml^−1 were used. Samples were prepared in parallel to a final volume of 200 μl per well.
A constant volume of DIOLL solution in ethanol (5 μl) was added in each well to obtain a final DIOLL concentration of 2 μM. The volume of ethanol added represented 2.5% of the final volume and had no effect on liposome integrity. The plate was incubated at room temperature for 10 min. Fluorescence emission spectra were recorded between 420 nm and 600 nm for an excitation wavelength of 390 nm with a TECAN InfiniteM200 plate reader. Spectra were recorded at 21° C.
The surface under the spectrum was calculated for each condition using an Excel complementary function, IntegralP (www.fordom.free.fr) which allows one to calculate the integral of a function when discrete data sets are available. Maximum fluorescence intensities or surfaces under the curve were plotted as a function of the lipid concentration to obtain the standard curve. They both show a hyperbolic variation and the equation of the standard curve was obtained using a hyperbolic fit y=ax/(x+b) (SigmaPlot). The calculation of the a and b coefficients allowed us to determine unknown concentrations in the samples. As various volumes were used for the assays, the concentration of the stock liposome solution was presented taking into account various dilution factors. Measurements were performed in triplicates.
For the estimation of the limit of detection (LOD) and of quantification (LOQ), the fluorescence spectra of 2 μM DIOLL in aqueous buffer were recorded in the absence of liposomes and the surface under the curve was calculated to estimate the blank value on 5 independent measurements. LOD and LOQ were calculated as 3 times or 10 times the standard deviation of the blank, respectively.
Sensitivity was estimated from the slope of the linear fit for low liposome concentrations. As the fluorescence intensity is dependent on the instrument used, in this study the inventors estimated that an increase of 100 A.U. in the fluorescence intensity obtained with TECAN InfiniteM200 was significant.
To conclude upon the repeatability of the method, the coefficient of variation (CV) was calculated as the percentage of the standard deviation on the mean of 5 independent measurements. Accuracy was deduced from the difference between the concentrations obtained with the DIOLL-based method and a standard method of phospholipid quantification, in our case the Stewart method.

[2] = system: influenza virus membranes; assay: Labeling of viral membranes and GP calculation
[3] = system: HMEC cells; assay: Confocal microscopy labelling of cell membranes and GP determination; assay type: cell-based, Human

CCCCCCCCCCCC(=O)c1ccc2cc(N(C)CC(O)CO)ccc2c1 (stereo not drawn) [DIOLL, 1-(6-((2,3-dihydroxypropyl)(methyl)amino)naphthalen-2-yl)dodecan-1-one]
liposome concentration at which fluorescence seems to reach saturation ([1]; 2 μM DIOLL, POPC liposomes): over 50 μg.ml^−1
concentration of a POPC liposome solution determined with DIOLL ([1]; 3 replicates): 914 ± 56 µg/mL
Repeatability ([1]; POPC liposome solution, replicates): 6% and 1.2%
LOD ([1]; POPC standard curve, 2 μM DIOLL, 3 times SD of blank): 0.4 µg/mL
LOQ ([1]; POPC standard curve, 2 μM DIOLL, 10 times SD of blank): 1.2 µg/mL
Sensitivity ([1]; TECAN InfiniteM200): 10 000 A.U
Sensitivity (concentration printed in the same cell) ([1]; TECAN InfiniteM200): 0.4 µg/mL
slope of the linear part ([1]; TECAN InfiniteM200): 10^5 A.U per μg.ml^−1
liposome concentration up to which sensitivity was good ([1]; above it fluorescence reaches a plateau): up to 40 μg.ml^−1
Accuracy (difference to Stewart method) ([1]; same POPC liposome solution): 1.2% and 6.0%
detectable variation in liposome concentration ([1]; sensitivity limit of TECAN InfiniteM200 100 A.U.): 1 ng/mL
GP ([2]; 21° C.): 0.315
GP ([2]; 37° C.): 0.096
labelling of cell membranes ([3]; HMEC cells incubated 48 h, excitation 405 nm): labeled uniformly all cell membranes
GP value ([3]; endoplasmic reticulum membranes of HMEC cells): −0.14±0.06
GP value ([3]; mitochondria membranes of HMEC cells): −0.18±0.02
GP value ([3]; nucleus membranes of HMEC cells): −019±0.04
GP value ([3]; plasma membrane structures of HMEC cells): 0.05±0.03

From patent publication US20220390458A1, “FLUORESCENT PROBE AND APPLICATIONS THEREOF” (CENTRE NATIONAL DE LA RECHERCHE SCIENTIFIQUE (CNRS), priority 2019, published 2022)
